Calls of active or inactive are those of the source. The calls are words filed in the database; no cut-off is given here.
System: Trypanosoma brucei brucei
Assay: Trypanocidal activity against Trypanosoma brucei brucei s427 measured within 6 hrs by propidium iodide staining-based fluorimetric analysis
Format: functional, organism-based

## O=[As]c1ccccc1 (stereo unspecified)
  Activity: Active

Reference: ChEMBL document CHEMBL3611982, “Lowering the pKa of a bisimidazoline lead with halogen atoms results in improved activity and selectivity against Trypanosoma brucei in vitro” (Eur J Med Chem, 2015)
